Pooled drug test results. Numbers come from NIAID ChemDB, via PubChem.

Shared fields: cytotoxicity tests; cell line: HepG2; read-out: CC50

Blank or dashed fields: not listed here. Two numbers with a dash give a range or band. CCn is the concentration with n% toxicity to the cells. Neighbouring rows are from separate reports.

SMILES,read by,result
COc1cccc(CNCCCNc2ccnc3cc(Oc4ccc(C(C)(C)C)cc4)ccc23)c1O,fluorescence,1.5 µM
Cc1ccc(F)c(NC(=O)c2c3c(c(C)n2C)C(=O)NC(C)(C)CC3)c1,MTT,>30 µM
Nc1nc2c(ncn2[C@@H]2O[C@H](CO)C(F)(F)C2(F)F)c(=O)[nH]1,-,>100 µM
COc1ccc(F)cc1CNCCCNc1ccnc2cc(CC(C)C)ccc12,fluorescence,2.9 µM
Cc1ccc(-c2cc3nc(NC(C)(C)C)[nH]c(=O)c3s2)cc1.Cl,MTT,24 µM
CCc1ccc2[nH]c3cc(C#N)c(=O)oc3c2c1,visual reading / absorbance,8 µg/mL
CNC(=O)c1ccc(-n2c(CC(C)C)nc3c(c2=O)C[C@@H](C)N(C(=O)c2ccc(Br)c(C(F)(F)F)c2)C3)cc1,luminescence,>50 µM
CCCCCCCCCCCCN=C(N)c1ccc(N2CCN(c3ccc(C(N)=NCCCCCCCCCCCC)cc3)CC2)cc1,-,24.8 µg/mL
C[C@H]1C[C@@H]1NC(=O)c1cc2sc(OC3CC(N4CCOCC4)C3)nc2s1,fluorescence,>100 µM
O=C1COc2ccc(N3C(=O)O[C@@H]4C[C@@H](NCCn5c(=O)ccc6ccc(OCCO)nc65)CC[C@@H]43)nc2N1,luminescence,>100 µg/mL
c1ccc2[nH]c(-c3ccc(N4CCN(c5ccc(-c6nc7ccccc7[nH]6)cc5)CC4)cc3)nc2c1,-,>71 µg/mL
CC(N[C@H]1CS(=O)(=O)C[C@@H]1S(=O)(=O)c1ccc(F)cc1)c1ccccc1,MTT,>80 µg/mL
Cc1c2c(c(C(=O)Nc3ccnc(F)c3)n1C)CCC(C)(C)NC2=O,MTT,>30 µg/mL
CC(C)(C)Nc1nc2cc(-c3ccc(Cl)cc3)sc2c(=O)[nH]1,MTT,15 µM
c1ccc(-c2ccc3c(NCCCNCc4ccco4)ccnc3c2)cc1,fluorescence,5.92 µM
Cc1cc(F)cc(NC(=O)c2c3c(c(C)n2C)C(=O)NC(C)(C)CC3)c1,MTT,>30 µM
CCCCCCc1ccc(-c2cn(C/C(C)=C/CP(=O)(OCOC(=O)OC(C)C)OCOC(=O)OC(C)C)nn2)cc1,absorbance,59.6 µM
COc1cccc(CNCCCNc2ccnc3cc(Cc4ccc(C#N)cc4)ccc23)c1O,fluorescence,7.15 µM
CCCCCCCCCN=C(N)c1ccc(N2CCN(c3ccc(C(N)=NCCCCCCCCC)cc3)CC2)cc1,-,6.63 µg/mL
C/C(=C\CP(=O)(OCOC(=O)OC(C)C)OCOC(=O)OC(C)C)Cn1cc(C(=O)O)nn1,absorbance,>100 µM
COc1cccc(CNCCCNc2ccnc3cc(-c4ccc(F)cc4)ccc23)c1O,fluorescence,6.84 µM
Cc1cc(NC(=O)c2c3c(c(C)n2C)C(=O)NC(C)(C)CC3)ccc1F,MTT,>30 µM
CC(C)c1ccc2[nH]c3cc(C#N)c(=O)oc3c2c1,visual reading / absorbance,8 µg/mL
CC1CC(NC(=O)c2cc3sc(N4CCN(C5COC5)[C@H](C)C4)nc3s2)C1,fluorescence,>100 µM
CNC(=O)c1ccc(-n2c([C@H]3CC3(F)F)nc3c(c2=O)C[C@@H](C)N(C(=O)c2ccc(Cl)c(C(F)(F)F)c2)C3)cc1,luminescence,>50 µM
COc1ccc2nc3cc(Cl)ccc3c(NCCCCNC(=O)/C=C/c3ccc(C(C)C)cc3)c2c1,MTT,4.1 µM
CCc1ccc([C@H]2C[C@@H](C(F)(F)F)n3ncc(C(=O)NCc4ccc5c(c4)OCO5)c3N2)cc1,resazurin,>25 µM
COc1ccc2ccc(=O)n(CCN[C@H]3CC[C@H]4[C@@H](C3)OC(=O)N4c3ccc4c(n3)NC(=O)CO4)c2n1,luminescence,10–100 µg/mL
Cc1c(C(=O)Nc2ccc(F)c(F)c2)c2c(n1C)C(=O)NC(C)(C)CC2,MTT,5–30 µM
Cc1cc(NC(=O)c2c(C)c(C(=O)C(=O)N[C@@H]3CN[C@H](C(=O)O)C3)n(C)c2C)ccc1F,MTT,>30 µM
NCCOc1ccc2ccc(=O)n(CCN[C@H]3CC[C@H]4[C@@H](C3)OC(=O)N4c3ccc4c(n3)NC(=O)CO4)c2c1,luminescence,>100 µg/mL
Cc1c(C(=O)Nc2ccc(F)c(C#N)c2)c(C)n(C)c1C(=O)C(=O)NC1(C)CCC(O)CC1,MTT,>30 µM
Nc1nc(=O)n(C2CC[C@@H](CO)O2)cc1[N+](=O)[O-],-,>10 µM
C/C=C/C=C/C=C/c1nc2ccccc2n2cccc12,MTT / absorbance,10.6 µM
C/C=C\C(=O)O[C@H]1c2c(ccc3c(C)cc(=O)oc23)OC(C)(C)[C@H]1OC(=O)/C=C\C,MTT,15.62 µM
C/C(=C\CP(=O)(OCOC(=O)OC(C)C)OCOC(=O)OC(C)C)Cn1cc(C2CC2)nn1,absorbance,>100 µM
CCC/C=C/C=C/c1nc2ccccc2n2cccc12,MTT / absorbance,9.3 µM
CCC1(NC(=O)C(=O)c2c(C)c(C(=O)Nc3ccc(F)c(C)c3)c(C)n2C)CCN(C(C)=O)CC1,MTT,>30 µM
CC(C)Nc1nc2c(c(=O)n1C1CCC(n3cccn3)CC1)C[C@@H](C)N(C(=O)c1ccc(Cl)c(C(F)(F)F)c1)C2,luminescence,>3.12 µM
CCCCCCCc1ccc(-c2cn(C/C(C)=C/CP(=O)(OCOC(=O)OC(C)C)OCOC(=O)OC(C)C)nn2)cc1,absorbance,90.8 µM
Cc1cc(NC(=O)c2c(C)c(C(=O)C(=O)NC3CCC(S(C)(=O)=O)CC3)n(C)c2-c2ccsc2)ccc1F,MTT,>30 µM
CCCCCCCC(=O)NCc1cn(C/C(C)=C/CP(=O)(OCOC(=O)OC(C)C)OCOC(=O)OC(C)C)nn1,absorbance,57.3 µM
CCCCCN=C(N)c1ccc(N2CCN(c3ccc(C(N)=NCCCCC)cc3)CC2)cc1,-,>0.14 µg/mL
Cc1cn([C@@H]2O[C@H](CO)C(F)(F)C2(F)F)c(=O)[nH]c1=O,-,>100 µM
CCCC/C=C/C=C/c1nc2cc(OC)ccc2n2cccc12,MTT / absorbance,18.3 µM
Nc1ccn([C@@H]2O[C@H](CO)C(F)(F)C2(F)F)c(=O)n1,-,>100 µM
Cc1cc(=O)oc2c3c(ccc12)OC(C)(C)[C@@H](OC(=O)c1cccc([N+](=O)[O-])c1)[C@H]3OC(=O)c1cccc([N+](=O)[O-])c1,MTT,>100 µM
Cc1cc(NC(=O)c2c(C)c(C(=O)C(=O)NCC(C)(C)O)n(C)c2-c2cccnc2)ccc1F,MTT,>30 µM
CCCCCCN=C(N)c1ccc(N2CCN(c3ccc(C(N)=NCCCCCC)cc3)CC2)cc1,-,>0.409 µg/mL
COC(=O)N1CC[C@@H](Oc2nc3sc(C(=O)NC4CCC4)cc3s2)C1,fluorescence,>100 µM
Nc1cn([C@H]2C[C@H](O)[C@@H](CO)O2)c(=O)nc1N,-,>10 µM
COc1ccc2nc3cc(Cl)ccc3c(NCCCCNC(=O)/C=C/c3ccc(Cl)cc3)c2c1,MTT,4.3 µM
Cc1c2c(c(C(=O)Nc3cccc(Cl)c3)n1C)CCC(C)(C)NC2=O,MTT,>30 µM
O=c1[nH]c(=O)n([C@H]2CC[C@@H](CO)O2)cc1[N+](=O)[O-],-,>10 µM
Cc1cc(NC(=O)c2c(C)c(C(=O)C(=O)NC3(C)CC(O)C3)n(C)c2-c2ccncc2)ccc1F,MTT,>30 µM
COc1ccccc1Oc1ccc2c(NCCCNCc3ccco3)ccnc2c1,fluorescence,6.5 µM
NNC(=O)c1ccc(N2CCN(c3ccc(C(=O)NN)cc3)CC2)cc1,-,866.8 µM
CC(C)OC(=O)[C@H](C)NP(=O)(OC[C@H]1O[C@@H](n2cnc3c(=O)[nH]c(N)nc32)C(F)(F)C1(F)F)Oc1ccccc1,-,>100 µM
COc1ccc2nc3cc(Cl)ccc3c(NCCCCNC(=O)/C=C/c3ccc(C)cc3)c2c1,MTT,8.6 µM
C/C(=C\CP(=O)(OCOC(=O)OC(C)C)OCOC(=O)OC(C)C)Cn1cc(-c2ccc([N+](=O)[O-])cc2)nn1,absorbance,85.3 µg/mL
Cc1cc(=O)oc2c3c(ccc12)OC(C)(C)[C@@H](OC(=O)c1cccc(Cl)c1Cl)[C@H]3OC(=O)c1cccc(Cl)c1Cl,MTT,77.55 µM
CC(C)Nc1nc2cc(-c3ccc(Cl)cc3)sc2c(=O)[nH]1.O=C(O)/C=C/C(=O)O,MTT,25.6 µM
Nc1nc(=O)n([C@@H]2C[C@H](O)[C@@H](CO)O2)cc1[N+](=O)[O-],-,>10 µM
CCCCCCCN=C(N)c1ccc(N2CCN(c3ccc(C(N)=NCCCCCCC)cc3)CC2)cc1,-,2.54 µg/mL
C[C@@H]1CN(c2nc3sc(C(=O)N[C@H]4C[C@@H]4C)cc3s2)CCN1C1COC1,fluorescence,>100 µM
CNC(=O)N1CCC(n2c(NC(C)C)nc3c(c2=O)C[C@@H](C)N(C(=O)c2ccc(Cl)c(C(F)(F)F)c2)C3)CC1,luminescence,>50 µM
CC(C)OC(=O)[C@H](C)NP(=O)(OC[C@H]1O[C@@H](n2ccc(=O)[nH]c2=O)C(F)(F)C1(F)F)Oc1ccccc1,-,>100 µM
CC1=C2C3B(OCCOC3C=C1)O[C@@H]2CN,resazurin / fluorescence,971 µM

The last 8 rows once more:

SMILES	read by	result
Cc1cc(=O)oc2c3c(ccc12)OC(C)(C)[C@@H](OC(=O)c1cccc(Cl)c1Cl)[C@H]3OC(=O)c1cccc(Cl)c1Cl	MTT	77.55 µM
CC(C)Nc1nc2cc(-c3ccc(Cl)cc3)sc2c(=O)[nH]1.O=C(O)/C=C/C(=O)O	MTT	25.6 µM
Nc1nc(=O)n([C@@H]2C[C@H](O)[C@@H](CO)O2)cc1[N+](=O)[O-]	-	>10 µM
CCCCCCCN=C(N)c1ccc(N2CCN(c3ccc(C(N)=NCCCCCCC)cc3)CC2)cc1	-	2.54 µg/mL
C[C@@H]1CN(c2nc3sc(C(=O)N[C@H]4C[C@@H]4C)cc3s2)CCN1C1COC1	fluorescence	>100 µM
CNC(=O)N1CCC(n2c(NC(C)C)nc3c(c2=O)C[C@@H](C)N(C(=O)c2ccc(Cl)c(C(F)(F)F)c2)C3)CC1	luminescence	>50 µM
CC(C)OC(=O)[C@H](C)NP(=O)(OC[C@H]1O[C@@H](n2ccc(=O)[nH]c2=O)C(F)(F)C1(F)F)Oc1ccccc1	-	>100 µM
CC1=C2C3B(OCCOC3C=C1)O[C@@H]2CN	resazurin / fluorescence	971 µM